Results of unrelated studies side by side (data: NIAID ChemDB).

All rows: whole-cell or culture tests; species: HIV-1; cell line: CEM; endpoint: EC50

Two numbers with a dash give a range or band. Conditions beyond the fields shown may differ between rows. ECn is the concentration giving n% inhibition of infection, replication or growth. An empty or dashed field is not shown.

SMILES,strain or isolate,changes,read by,result
COc1ccc(OC)c(CS(=O)c2cccc[n+]2[O-])c1,IIIB,,syncytia,>100 µg/mL
Cc1occc1C(=S)Nc1ccc(Cl)c(/C=N/OC(C)(C)C)c1,IIIB,RT-V179D,syncytia,0.48 µM
O=C(c1ccccc1)N(CCc1ccccc1)C[C@H](O)CN(CC1CCCC1)S(=O)(=O)C1CCS(=O)(=O)CC1,IIIB,,p24,<1 µM
CO[C@]12CS(=O)(=O)O[C@@]13[C@@H](CN2)O[C@@H](n1cc(C)c(=O)[nH]c1=O)[C@@H]3O,IIIB,,,35 µM
CCc1c(Cc2cccc3ccccc23)n(COC)c(=O)[nH]c1=O,LAV,,,0.494 µM
CC(=O)N1CCc2cc(S(=O)(=O)N(CC3CCCC3)C[C@@H](O)[C@H](Cc3ccccc3)NC(=O)O[C@H]3CCOC3)ccc21,IIIB,,p24,<1 µM
Cc1ccc[n+]([O-])c1S(=O)(=O)C(C)c1cccc([N+](=O)[O-])c1C,IIIB,,syncytia,11 µg/mL
Cc1ccc(C)c(CS(=O)(=O)c2ccccn2)c1,IIIB,RT-Y181C,syncytia,>20 µg/mL
CCC(CC)Oc1ccc(NC(=O)c2ccccc2SSc2ccccc2C(=O)Nc2ccc(OC(CC)CC)cc2)cc1,,,XTT,22 µM
CC(C)c1ccc(C(C)C)c(CS(=O)(=O)c2cccc[n+]2[O-])c1,IIIB,,syncytia,≥4 µg/mL
COCn1c(Cc2cccc3ccccc23)c(C)c(=O)[nH]c1=O,LAV,,,2.483 µM
Cc1ccc(C)c(C(Cl)S(=O)(=O)c2cc(C)cc[n+]2[O-])c1,HE,,syncytia,≥4 µg/mL
CC1=C(C(=O)Nc2ccc(Cl)c(C(=O)OC(C)C)c2)SCCO1,IIIB,RT-L100I,syncytia,>112 µM
Cc1cn([C@@H]2O[C@@H]3CN[C@@]4(OCC(C)(C)C)CS(=O)(=O)O[C@@]34[C@H]2O)c(=O)[nH]c1=O,IIIB,,,22.5 µM
Cc1cccc(CS(=O)(=O)c2cccc[n+]2[O-])c1,IIIB,RT-K103N,syncytia,16 µg/mL
N#Cc1ccc(NC(=O)c2ccccc2SSc2ccccc2C(=O)Nc2ccc(C#N)cc2)cc1,,,XTT,15 µM
CCC1=C(C(=O)OCC2CCCCC2)[C@H](c2cccc(OC(=O)[C@H](C)[NH3+])c2)NC(=O)N1,,,p24 / ELISA,≤1 µM
CCCCCCCC(Sc1cccc[n+]1[O-])c1cc(C)c(C)c(C)c1,IIIB,,syncytia,>20 µg/mL
CCO[C@]12CS(=O)(=O)O[C@@]13[C@@H](CN2)O[C@@H](n1cc(C)c(=O)[nH]c1=O)[C@@H]3O[Si](C)(C)CCC(C)(C)C,IIIB,,,>10 µM
COc1ccc(C)cc1CS(=O)(=O)c1cccc[n+]1[O-],IIIB,RT-K103N,syncytia,44 µg/mL
Cc1ccc(C)c(C(C)S(=O)(=O)c2c(C)ccc[n+]2[O-])c1,IIIB,,cytopathic effect,0.1 µg/mL
Cc1ccc(C)c(C(Cl)S(=O)(=O)c2c(C)ccc[n+]2[O-])c1,IIIB,,syncytia,>100 µg/mL
Cc1cc(C)c(CS(=O)c2cccc[n+]2[O-])c(C)c1,IIIB,,cytopathic effect,2.4 µg/mL
Cc1ccc(C)c(C(C)Sc2cccc[n+]2[O-])c1,IIIB,,syncytia,6 µg/mL
CC(C)=CCOc1cc(NC(=S)c2ccoc2C)ccc1Cl,IIIB,RT-K103N,syncytia,0.07 µg/mL
COc1ccc(S(=O)(=O)N(CC(C)C)C[C@@H](O)CCN(CC2CCCC2)S(=O)(=O)C2C(=O)CC(C)(C)SC2=O)cc1,IIIB,,p24,<1 µM
Cc1cn([C@@H]2O[C@@H]3CN[C@@]4(C(N)=O)CS(=O)(=O)O[C@@]34[C@H]2O[Si](C)(C)C(C)(C)C)c(=O)[nH]c1=O,IIIB,,,>125 µM
Cc1ccc(C)c(CS(=O)(=O)c2cccc[n+]2[O-])c1,IIIB,,syncytia,5.3 µg/mL
CCc1c(Cc2ccc3ccccc3c2)n(COCCO)c(=O)[nH]c1=O,LAV,,,>56.5 µM
CCCCCCCCCCCC(Sc1cccc[n+]1[O-])c1cc(C)ccc1C,IIIB,,syncytia,>4 µg/mL
Cc1cc(S(=O)(=O)Nc2nnc3c4ccccc4cnn23)c(S)cc1Cl,4XAZT (AZT-resistant),,p24,80 µM
Cc1occc1C(=S)Nc1ccc(Cl)c(/C=N/OC(C)(C)C)c1,IIIB,RT-Y188H,syncytia,0.64 µM
COc1cc(CS(=O)(=O)c2cccc[n+]2[O-])cc(OC)c1OC,IIIB,,syncytia,≥20 µg/mL
C=CCOC(=O)N[C@@H](Cc1ccccc1)[C@H](O)CN(CC(C)C)S(=O)(=O)c1ccc(NC(C)=O)cc1,IIIB,,p24,<10 µM
CCC1=C(c2nc(C3CCCCC3)cs2)C(c2ccc(C(F)(F)F)cc2)NC(=O)N1,,,p24 / ELISA,1–5 µM
NC(=O)C[C@H](NC(=O)c1ccc2ccccc2n1)C(=O)N[C@@H](Cc1ccccc1)[C@H](O)CN(Cc1ccccc1)S(=O)(=O)c1cccc(C(=O)O)c1,IIIB,,p24,<40 µM
CCOC(=O)CCNC(=O)c1ccccc1SSc1ccccc1C(=O)NCCC(=O)OCC,,,XTT,>40 µM
CCC1=C(C(=O)OCC2CCCCC2)C(c2cc(C(F)(F)F)cc(C(F)(F)F)c2)NC(=O)N1,,,p24 / ELISA,≤1 µM
COCn1c(Cc2cccc3ccccc23)c(C(C)C)c(=O)[nH]c1=O,LAV,,,0.13 µM
O=C(N[C@@H](Cc1ccccc1)[C@H](O)CN(CC1CCCC1)S(=O)(=O)c1ccc(Cl)c(Cl)c1)O[C@@H]1CCOC1,IIIB,,p24,<1 µM
CCCCO[C@]12CS(=O)(=O)O[C@@]13[C@@H](CN2)O[C@@H](n1cc(C)c(=O)[nH]c1=O)[C@@H]3O,IIIB,,,>125 µM
Nc1ccc(S(=O)(=O)NC(Cc2ccccc2)C(F)(F)C(=O)[C@@H](Cc2ccccc2)NC(=O)O[C@H]2CCOC2)cc1,IIIB,,p24,<1 µM
Cc1ccc(C)c(CS(=O)(=O)c2ncccc2O)c1,IIIB,,syncytia,24 µg/mL
CC(=O)Nc1ccc(S(=O)(=O)N(CC2CCCC2)C[C@@H](O)[C@H](Cc2ccccc2)NC(=O)OCc2cccnc2)cc1,IIIB,,p24,<1 µM
CC[C@@H](C)[C@@H](NC(=O)c1ccccc1SSc1ccccc1C(=O)N[C@@H](C(=O)O)[C@H](C)CC)C(=O)O,,,XTT,6.3 µM
O=S(=O)(Nc1nnc2c3ccccc3cnn12)c1ccc(Cl)cc1S,RF,,cytopathic effect / XTT,49 µM
O=S(Cc1ccc(F)cc1)c1cccc[n+]1[O-],IIIB,,syncytia,≥20 µg/mL
CCC1=C(C(=O)OCC2CCCCC2)[C@H](c2cccc(OC(=O)c3cccnc3)c2)NC(=O)N1,,,p24 / ELISA,≤1 µM
Cc1cn([C@@H]2O[C@@H]3CN[C@@]4(C#N)CS(=O)(=O)O[C@@]34[C@H]2O)c(=O)[nH]c1=O,IIIB,,,>250 µM
CC(C)OC(=O)c1cc(NC(=S)OC(C)C)ccc1Cl,IIIB,RT-Y188L,syncytia,>2 µM
C=C(COC)COC(=O)N[C@@H](Cc1ccccc1)[C@H](O)CN(CC1CCCC1)S(=O)(=O)c1ccc(OC)cc1,IIIB,,p24,<10 µM
N[C@@H](Cc1ccccc1)C(=O)C(F)(F)CN(Cc1ccccc1)S(=O)(=O)c1ccccc1,IIIB,,p24,<1 µM
Cc1ccc(C)c(C(Sc2cccc[n+]2[O-])c2ccccc2)c1,IIIB,,syncytia,≥20 µg/mL
CCC1=C(CO)C(c2cccc(O)c2)NC(=O)N1,,,p24 / ELISA,>5 µM
O=C(O)c1ccccc1SSc1ccccc1C(=O)O,,,XTT,>100 µM
CCOc1cccnc1SCc1ccccc1,IIIB,,syncytia,33 µg/mL
COc1ccc(S(=O)(=O)N(CC(C)C)C[C@@H](O)CCN(CC2CCCC2)S(=O)(=O)CC2CS(=O)(=O)CC2O)cc1,IIIB,,p24,<1 µM
Cc1ccc(C)c(C(C)S(=O)(=O)c2ccc(C)c[n+]2[O-])c1,IIIB,RT-L100I,syncytia,50 µg/mL
CCC1=C(C(=O)OCC2CCCCC2)C(c2ccc(NCc3ccccc3)cc2)NC(=O)N1,,,p24 / ELISA,≤1 µM
O=S(=O)(Cc1ccccc1)c1ncccc1O,IIIB,,syncytia,60 µg/mL
CCO[C@]12CS(=O)(=O)O[C@@]13[C@@H](CN2)O[C@@H](n1cc(C)c(=O)[nH]c1=O)[C@@H]3O,IIIB,,,>250 µM
COc1ccc(S(=O)(=O)N(CC[C@@H](O)CN(CC(C)C)S(=O)(=O)c2ccc(OC)cc2)CC2CCCC2)cc1,IIIB,,p24,<1 µM
Cc1cn([C@@H]2O[C@@H]3CN[C@@]4(OCc5ccccc5)CS(=O)(=O)O[C@@]34[C@H]2O[Si](C)(C)C(C)(C)C)c(=O)[nH]c1=O,IIIB,,,>10 µM
Cc1ccc(C)c(CS(=O)(=O)c2cccc[n+]2[O-])c1,RF,,cytopathic effect,7.2 µg/mL
CCOCn1c(Cc2ccc3ccccc3c2)c(C)c(=O)[nH]c1=O,LAV,,,4.412 µM
COc1cccc(C2NC(=O)NC(C)=C2C(=O)OCC2CCCCC2)c1,,,p24 / ELISA,1–5 µM
Cc1ccc(C)c(CS(=O)c2ccc(Cl)c[n+]2[O-])c1,MN,,cytopathic effect,7.6 µg/mL

9 of the rows above, restated:

| SMILES | strain or isolate | changes | read by | result |
|---|---|---|---|---|
| O=C(O)c1ccccc1SSc1ccccc1C(=O)O |  |  | XTT | >100 µM |
| Cc1ccc(C)c(CS(=O)c2ccc(Cl)c[n+]2[O-])c1 | MN |  | cytopathic effect | 7.6 µg/mL |
| CC(C)=CCOc1cc(NC(=S)c2ccoc2C)ccc1Cl | IIIB | RT-K103N | syncytia | 0.07 µg/mL |
| O=C(c1ccccc1)N(CCc1ccccc1)C[C@H](O)CN(CC1CCCC1)S(=O)(=O)C1CCS(=O)(=O)CC1 | IIIB |  | p24 | <1 µM |
| Cc1cc(C)c(CS(=O)c2cccc[n+]2[O-])c(C)c1 | IIIB |  | cytopathic effect | 2.4 µg/mL |
| CCC1=C(CO)C(c2cccc(O)c2)NC(=O)N1 |  |  | p24 / ELISA | >5 µM |
| O=S(=O)(Cc1ccccc1)c1ncccc1O | IIIB |  | syncytia | 60 µg/mL |
| N#Cc1ccc(NC(=O)c2ccccc2SSc2ccccc2C(=O)Nc2ccc(C#N)cc2)cc1 |  |  | XTT | 15 µM |
| Cc1cn([C@@H]2O[C@@H]3CN[C@@]4(C#N)CS(=O)(=O)O[C@@]34[C@H]2O)c(=O)[nH]c1=O | IIIB |  |  | >250 µM |